ChEMBL document CHEMBL3596151, “Elucidation of the in vitro and in vivo activities of bridged 1,2,4-trioxolanes, bridged 1,2,4,5-tetraoxanes, tricyclic monoperoxides, silyl peroxides, and hydroxylamine derivatives against Schistosoma mansoni” (Bioorg Med Chem, 2015)

System: Schistosoma mansoni
Assay: Antischistosomal activity against newly transformed Schistosoma mansoni cercariae assessed as decrease in viability after 72 hrs by microscopic analysis

C[C@]12C[C@](C)(OO1)OO2
IC50: 20.2 µM
